Patent US12440498B2 (priority 2020, dated 2025)

Test system: A/H1N1 WT virus
Assay: Successive cell passages of A/H1N1 WT virus in MDCK cells under antiviral selection pressure
Details: diltiazem 25 μM over 10 passages; baloxavir arm and combination arm until the 6th cell passage

Structure (SMILES): O=C1c2c(O)c(=O)ccn2N([C@@H]2c3ccccc3SCc3c2ccc(F)c3F)[C@@H]2COCCN12 [baloxavir, baloxavir acid]
- limiting dilution used for each cell passage (significant cytopathic effects observed): 10^−5
